Reference: ChEMBL document CHEMBL1148873, “Carbonic anhydrase inhibitors: the beta-carbonic anhydrase from Helicobacter pylori is a new target for sulfonamide and sulfamate inhibitors” (Bioorg Med Chem Lett, 2007)

How the values were obtained:
[1] = tested on: Helicobacter pylori; experiment: Ratio of kcat to Km of Helicobacter pylori alpha CA
[2] = tested on: Helicobacter pylori; experiment: Activity of Helicobacter pylori beta CA at pH 8.3 by CO2 hydration assay
[3] = tested on: Helicobacter pylori; experiment: Ratio of kcat to Km of Helicobacter pylori beta CA
[4] = tested on: Helicobacter pylori; experiment: Activity of Helicobacter pylori alpha CA at pH 8.9 by CO2 hydration assay

In the case of `CC(=O)Nc1nnc(S(N)(=O)=O)s1`, the kcat/Km [1] is reported as 1.5 10^7/M/s, the Km [2] is reported as 14.7 mM and the kcat [2] is reported as 7.1 10^5/s. The kcat/Km [3] was 4.8 10^7/M/s, the Km [4] was 16.6 mM and the kcat [4] was 2.5 10^5/s.
